Measurements reported in PubChem BioAssay AID624099 (ICCB-Longwood, 2012)
The whole screen tested about 21,000 reagents; this is a random part of them. 497 of them (2.4%) were called active. 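Higher z means weaker E2 silencing; only reporter increases were scored, and knock-downs that hurt cell survival may mask genuine repressor factors.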

Test: 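Host factors E2 relies on to silence an HPV18 LCR reporter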 (primary screen)
Cells: human C33A cervical carcinoma cells (HPV-negative) stably expressing BPV1 E2 and an HPV18 LCR luciferase reporter
Reagent: siRNA pool against human genes, 40 nM
Timing: 72 h
Detection: 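Per-well luciferase luminescence, z-scored on each plate against the plate mean and SD with control wells left out, then averaged across three replicate plates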
Direction: mean z-score and z-score: higher = stronger reporter signal, weaker E2 silencing
Hit rule: 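Hit if mean z-score reaches 2 and two or more of three replicate z-scores also reach 2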

| target gene | mean z-score | z-score, replicate A | z-score, replicate B | z-score, replicate C | call |
| --- | --- | --- | --- | --- | --- |
| ZNF670 | -0.45 | -0.35 | -0.22 | -0.78 | inactive |
| SIPA1L2 | 0.03 | 0.23 | -0.09 | -0.06 | inactive |
| SMCO1 | -1.58 | -1.22 | -1.96 | -1.55 | inactive |
| POLD4 | -0.62 | -0.76 | -0.96 | -0.14 | inactive |
| ARF4P3 | 0.32 | 0.24 | 0.6 | 0.13 | inactive |
| TRAM1 | -0.28 | 0.18 | -0.37 | -0.65 | inactive |
| PFDN6 | 1.59 | 1.39 | 1.64 | 1.75 | inactive |
| SLC14A2 | 0.68 | 0.39 | 1.25 | 0.4 | inactive |
| VLDLR-AS1 | -0.58 | -0.66 | -0.55 | -0.52 | inactive |
| NBPF7P | 0.14 | 0.29 | -0.01 | 0.14 | inactive |
| LOC339553 (retired record) | 1.84 | 1.85 | 2.01 | 1.68 | inactive |
| SLC41A1 | -1.36 | -1.12 | -1.2 | -1.76 | inactive |
| CLRN1 | 1.49 | 1.03 | 1.98 | 1.46 | inactive |
| LOC387783 (retired record) | -0.08 | -0.17 | -0.16 | 0.08 | inactive |
| COX7A2 | -2.02 | -2.09 | -1.81 | -2.16 | inactive |
| MMS22L | -1.14 | -1.18 | -1.14 | -1.09 | inactive |
| STAU1 | 0.04 | 0.14 | -0.08 | 0.08 | inactive |
| CELF5 | -0.72 | -0.44 | -1.1 | -0.62 | inactive |
| ABCC1 | 1.7 | 1.49 | 1.81 | 1.81 | inactive |
| CENPX | 0 | -0.08 | 0.37 | -0.28 | inactive |
| MYH4 | -2.68 | -2.55 | -2.97 | -2.52 | inactive |
| HMGCR | -0.36 | -0.35 | -0.57 | -0.17 | inactive |
| SPOCK1 | -0.05 | 0 | -0.04 | -0.12 | inactive |
| SPRTN | 0.5 | 0.7 | 0.66 | 0.15 | inactive |
| NEK11 | -0.53 | -0.59 | 0.1 | -1.09 | inactive |
| SOD2 | -0.54 | -0.62 | -0.45 | -0.55 | inactive |
| LINC02667 | 0.28 | 0.21 | 0.16 | 0.48 | inactive |
| BMX | 0.17 | 0.13 | 0.32 | 0.07 | inactive |
| DOCK11 | -0.32 | -0.12 | -0.38 | -0.45 | inactive |
| CD1C | 0.64 | 0.91 | 0.48 | 0.53 | inactive |
| SLC25A31 | -0.55 | -0.52 | -0.64 | -0.47 | inactive |
| ESPL1 | 1.6 | 1.62 | 1.68 | 1.5 | inactive |
| GUSBP1 | -0.32 | 0.08 | -0.77 | -0.26 | inactive |
| GJB3 | -0.65 | -0.66 | -0.66 | -0.64 | inactive |
| FIMP1 | 0.77 | 0.75 | 0.42 | 1.12 | inactive |
| TEX10 | -0.07 | 0.35 | 0.33 | -0.88 | inactive |
| SNTG2 | -0.26 | 0.06 | -0.29 | -0.55 | inactive |
| LINC02724 | -0.05 | -0.03 | -0.2 | 0.07 | inactive |
| CCDC106 | 1.31 | 1.35 | 1.3 | 1.29 | inactive |

Targets listed so far whose gene name begins with L or l:
| target gene | mean z-score | z-score, replicate A | z-score, replicate B | z-score, replicate C | call |
| --- | --- | --- | --- | --- | --- |
| LOC339553 (retired record) | 1.84 | 1.85 | 2.01 | 1.68 | inactive |
| LOC387783 (retired record) | -0.08 | -0.17 | -0.16 | 0.08 | inactive |
| LINC02667 | 0.28 | 0.21 | 0.16 | 0.48 | inactive |
| LINC02724 | -0.05 | -0.03 | -0.2 | 0.07 | inactive |
